Compound potency records, mixed from different reports. Data source: NIAID ChemDB in PubChem.

Common to all: target-level tests

Fold resistance: result on the changed form divided by that on wild type. Blank or dashed fields: not listed here. Inhibition is in % at the dose shown (toxicity tests: loss of growth or viability). Rows are shuffled and stem from different studies. ICn is the concentration giving n% inhibition.

| compound | strain or isolate | read by | measure | target | changes | agent | dose | result |
|---|---|---|---|---|---|---|---|---|
| CC(C(=O)O)N1C(=O)C(=Cc2ccc(-c3cc(C(F)(F)F)ccc3Cl)o2)SC1=S | - | - | IC50 | NS5 polymerase | - | Bovine viral diarrhea virus | - | ≤1 µM |
| O=C(CCCCCl)Nc1nnc(NCCCN2CCCC2=O)s1 | - | - | IC50 | Polymerase | - | Human cytomegalovirus | - | >25 µM |
| COc1cc(CCc2cccc3nc(N)nc(N)c23)cc(OC)c1OC | TYPE 2 | - | IC50 | Dihydrofolate reductase | - | Cryptosporidium parvum | - | >10 µM |
| CSc1ccc(-c2cncc(N3CCN(c4ccc(C)cc4)CC3)n2)cc1 | - | - | IC50 | UL97 kinase | - | Cytomegalovirus | - | <10 µM |
| O=C(/C=C/c1ccccc1Cl)Nc1nnc(NCc2ccccn2)s1 | - | - | IC50 | Polymerase | - | Human cytomegalovirus | - | <25 µM |
| CCCCCCCCCCCCC/C=C/[C@@H](O)[C@H](CO[C@@H]1O[C@H](CO)[C@H](O)[C@H](OS(=O)(=O)O)[C@H]1O)NC(=O)CCCCCCCCCCCCCCCCCCCCCCC | Influenza A/Memphis/102/72 (H3N2) | - | inhibition | Sialidase | - | Influenza A virus | 200 µM | 98.1% |
| COc1ccc(OC)c(NCc2ccc3nc(N)nc(N)c3c2Cl)c1 | TYPE 1 | - | IC50 | Dihydrofolate reductase | - | Cryptosporidium parvum | - | 0.0065 µM |
| Oc1cc(O)c2c(c1)O[C@H](c1cc(O)c(O)c(O)c1)[C@@H](O)C2 | - | - | inhibition | DNA polymerase | - | Epstein-Barr virus | 5 µg/mL | 21.9% |
| COc1cc(NCc2csc3nc(N)nc(N)c23)cc(OC)c1OC | TYPE 2 | - | IC50 | Dihydrofolate reductase | - | Cryptosporidium parvum | - | >10 µM |
| O=C(O)c1ccc(N2C(=O)C(=Cc3ccc(C#Cc4ccccc4)o3)SC2=S)cc1 | - | - | IC50 | NS5 polymerase | - | Bovine viral diarrhea virus | - | ≤1 µM |
| NC(=O)C[C@H](NC(=O)COc1cccc2ccccc12)C(=O)N[C@@H](Cc1ccccc1)[C@H](O)C(=O)N1CSC[C@H]1C(=O)NC1CC1 | - | - | inhibition | Protease | - | HIV-1 | 0.05 µM | 89.5% |
| CCOc1ccc2ccccc2c1C(=O)Nc1nnc(NCCC(=O)OC(C)(C)C)s1 | - | - | IC50 | Polymerase | - | Human cytomegalovirus | - | >25 µM |
| COc1ccc(CC2CCc3nc(N)nc(N)c3C2)cc1OC | TYPE 2 | - | IC50 | Dihydrofolate reductase | - | Cryptosporidium parvum | - | 0.4 µM |
| O=C(O)CCN1C(=O)C(=Cc2ccc(C#Cc3ccccc3)s2)SC1=S | - | - | IC50 | NS5 polymerase | - | Bovine viral diarrhea virus | - | ≤1 µM |
| CC(C)(C)OC(=O)[C@@H]1CCCN1C(=O)[C@@H](O)[C@H](Cc1ccccc1)NC(=O)[C@H](CC(N)=O)NC(=O)OCc1ccccc1 | - | - | inhibition | Protease | - | HIV-1 | 5 µM | 87.4% |
| Cc1ccc(-c2cncc(NCc3ccco3)n2)cc1C | - | - | IC50 | UL97 kinase | - | Cytomegalovirus | - | <100 µM |
| O=C(OC1OC2COC(=O)c3cc(Oc4c(C(=O)OC5C(O)OC6COC(=O)c7cc(O)c(O)c(O)c7-c7c(cc(O)c(O)c7O)C(=O)OC6C5OC(=O)c5cc(O)c(O)c(O)c5)cc(O)c(O)c4O)c(O)c(O)c3-c3c(cc(O)c(O)c3O)C(=O)OC2C(OC(=O)c2cc(O)c(O)c(O)c2)C1O)c1cc(O)c(O)c(O)c1 | - | - | inhibition | DNA polymerase | - | Epstein-Barr virus | 100 µg/mL | 70.8% |
| O=C1NC(=S)SC1=Cc1ccc(-c2ccc(Cl)c(Cl)c2)o1 | - | - | IC50 | NS5 polymerase | - | Bovine viral diarrhea virus | - | ≤1 µM |
| O=C(/C=C/c1ccccc1)Nc1nnc(NCCCCc2ccccc2)s1 | - | - | IC50 | Polymerase | - | Human cytomegalovirus | - | <25 µM |
| Nc1ccn([C@@H]2CS[C@H](COP(=O)(O)OP(=O)(O)OP(=O)(O)O)O2)c(=O)n1 | - | radiometric | fold resistance | Reverse transcriptase | RT-K65R K103N Q151M | HIV | - | 0.52 |
| COc1cc(CC2CCc3nc(N)nc(N)c3C2)cc(OC)c1OC | TYPE 2 | - | IC50 | Dihydrofolate reductase | - | Cryptosporidium parvum | - | 0.56 µM |
| O=C(Nc1nnc(NCCc2ccccc2)s1)c1cccc([N+](=O)[O-])c1 | - | - | IC50 | Polymerase | - | Human cytomegalovirus | - | >25 µM |
| Cc1[nH]nc2c1C(c1cc(Br)cc(C#N)c1)(C(C)C)C(C#N)=C(N)O2 | - | absorbance | Ki | Serine hydroxymethyltransferase | - | Plasmodium falciparum | - | 0.209 µM |
| Clc1cc(CN2CCCNCCNCCCNCC2)cc(Cl)n1 | - | - | IC50 | CXCR4 | CXCR4-H281A | - | - | 2.77 µM |
| Cc1[nH]nc2c1C(c1cc(Br)cc(C#N)c1)(C1CC=CC1)C(C#N)=C(N)O2 | - | absorbance | IC50 | Serine hydroxymethyltransferase | - | Plasmodium falciparum | - | 0.59 µM |
| COc1cc(N(C)Cc2ccc3nc(N)nc(N)c3n2)cc(OC)c1OC | TYPE 1 | - | IC50 | Dihydrofolate reductase | - | Cryptosporidium parvum | - | 0.075 µM |
| Cc1[nH]nc2c1C(c1cc(C#N)cc(N3CCOCC3)c1)(C1CCC1)C(C#N)=C(N)O2 | - | absorbance | Ki | Serine hydroxymethyltransferase | - | Plasmodium falciparum | - | 0.284 µM |
| CC(C)=CCN1Cc2cccc3[nH]c(=S)n(c23)C[C@@H]1C | - | nucleotide incorporation | fold resistance | Reverse transcriptase | RT-V60T | HIV | - | 8 |
| COc1ccc2c(c1OC)Cc1nc(N)nc(N)c1-2 | TYPE 1 | - | IC50 | Dihydrofolate reductase | - | Cryptosporidium parvum | - | >10 µM |
| c1ccc(N2CCN(c3cncc(-c4ccoc4)n3)CC2)cc1 | - | - | inhibition | UL97 kinase | - | Cytomegalovirus | 1 µM | <50% |
| CCOC(=O)COc1cccc(-c2cc(Cl)cc(C3(C4CCC4)C(C#N)=C(N)Oc4n[nH]c(C)c43)c2)c1 | - | absorbance | Ki | Serine hydroxymethyltransferase | - | Plasmodium falciparum | - | 0.198 µM |
| CN(C)c1ccc(-c2cncc(N3CCC(c4ccccc4)CC3)n2)cc1 | - | - | inhibition | UL97 kinase | - | Cytomegalovirus | 1 µM | <50% |
| COc1cccc(CC2CCc3nc(N)nc(N)c3C2)c1 | TYPE 2 | - | IC50 | Dihydrofolate reductase | - | Cryptosporidium parvum | - | 1.2 µM |
| Cc1[nH]nc2c1C(c1cc(C#N)cc(-c3ccnn3C)c1)(C1CCC1)C(C#N)=C(N)O2 | - | absorbance | Ki | Serine hydroxymethyltransferase | - | Plasmodium falciparum | - | 0.528 µM |
| CC(=O)C[C@H](NC(=O)COc1cccc2ccccc12)C(=O)N[C@@H](Cc1ccccc1)[C@H](O)C(=O)N1CSC[C@H]1C(=O)NC(C)(C)C | - | - | inhibition | Protease | - | HIV-1 | 0.05 µM | 27% |
| COc1cc(NCc2cccc3nc(N)nc(N)c23)c(Br)c(OC)c1OC | TYPE 1 | - | IC50 | Dihydrofolate reductase | - | Cryptosporidium parvum | - | >10 µM |
| COc1ccc(N2CCN(c3cnccn3)C(c3cc4ccccc4o3)C2)cc1 | - | - | IC50 | UL97 kinase | - | Cytomegalovirus | - | <10 µM |
| CCC(C)C(CO)NC(=O)[C@@H]1CSCN1C(=O)[C@@H](O)[C@H](Cc1ccccc1)NC(=O)[C@H](CS(C)(=O)=O)NC(=O)COc1cccc2ccccc12 | - | - | inhibition | Protease | - | HIV-1 | 0.05 µM | >90% |

Again, the opening 3 rows:

compound,strain or isolate,read by,measure,target,changes,agent,dose,result
CC(C(=O)O)N1C(=O)C(=Cc2ccc(-c3cc(C(F)(F)F)ccc3Cl)o2)SC1=S,-,-,IC50,NS5 polymerase,-,Bovine viral diarrhea virus,-,≤1 µM
O=C(CCCCCl)Nc1nnc(NCCCN2CCCC2=O)s1,-,-,IC50,Polymerase,-,Human cytomegalovirus,-,>25 µM
COc1cc(CCc2cccc3nc(N)nc(N)c23)cc(OC)c1OC,TYPE 2,-,IC50,Dihydrofolate reductase,-,Cryptosporidium parvum,-,>10 µM